Compound potency records, mixed from different reports. Data source: NIAID ChemDB in PubChem.

Shared fields: toxicity to cultured cells; measure: CC50

Conditions beyond the fields shown may differ between rows. Blank or dashed fields: not listed here. CCn: concentration that lowers growth or viability of the cells by n%.

smiles,cells,read by,value
O=c1[nH]c(=O)n([C@H]2C[C@H](O)[C@@H](CO)O2)cc1I,CBMC,MTT,153 µM
CS(=O)CCCCN=C=S,CEM-GFP,MTT,10.23 µM
NC(=S)N=Nc1c(O)n(CN2CCN(c3ccnc4cc(C(F)(F)F)ccc34)CC2)c2cccc(Br)c12,Human foreskin fibroblasts,MTT / absorbance,5.75 µM
CCC(=O)O[C@H]1C[C@H](n2cc(/C=C/Br)c(=O)[nH]c2=O)O[C@@H]1COP1(=O)OCc2cccc(C)c2O1,HELF,-,91.5 µg/mL
O=C(NC1N=C(c2ccccc2)c2ccccc2NC1=O)c1cc(F)c(F)cc1F,HEP-2,-,8 µM
Cc1cc(NS(=O)(=O)c2ccc(N3C(=O)CSC3c3c(Cl)cccc3Cl)cc2)no1,HCT116,MTT,>100 µg/mL
CCCCCCCCCCCCCCCCOP(=O)([O-])OCCC[N+](C)(C)C,MCF,MTT,45.2 µM
CCOc1ccccc1C(=O)NC1N=C(c2ccccc2)c2ccccc2NC1=O,HEP-2,-,0.7 µM
CCCCCCCCCCCCCCCO[P@]1(=O)OC[C@@H]2COC(=O)C2=C(CCCC)O1,U-2 OS,resazurin,>50 µM
Nc1ccn(C[C@@H](CO)OCP(=O)(O)O)c(=O)n1,OST TK-/HSV-1 TK+,-,459 µM
C[C@@H](O)C1=C[C@@H](n2cnc3c(N)ncnc32)[C@H](O)[C@@H]1O,MDCK,MTT / neutral red,7.3 µg/mL
CC(=O)O[C@H]1C[C@H](n2cc(/C=C/Br)c(=O)[nH]c2=O)O[C@@H]1COP1(=O)OCc2ccccc2O1,HELF,-,70 µg/mL
O=[N+]([O-])c1cc(C(F)(F)F)cc([N+](=O)[O-])c1N1COC1,MDCK cells,-,>80 µM
Nc1nc(N)c2ncn(C[C@@H](CO)OCP(=O)(O)O)c2n1,HSB-2,MTT,60 µM
NC(=S)N=Nc1c(O)n(CN2CCN(c3ccnc4cc(C(F)(F)F)ccc34)CC2)c2cc(Cl)ccc12,Human foreskin fibroblasts,MTT / absorbance,4.75 µM
CC(C)[C@H](NC(=O)Cn1ccnc1)C(=O)N[C@@H](Cc1ccccc1)C(O)[C@H](Cc1ccccc1)NC(=O)[C@@H](NC(=O)OCc1ccccc1)C(C)C,H9,trypan blue,>100 µM
Clc1ccc2c(NCCCN3CCN(c4ccnc5cc(Cl)ccc45)CC3)ccnc2c1,Human foreskin fibroblasts,MTT / absorbance,1.43 µM
Nc1nc2c(ncn2COC(CO)CO)c(=O)[nH]1,BCBL-1,-,90 µg/mL
CC1=C(C)[C@](CO)(c2ccccc2)C[C@H]1n1ccc(N)nc1=O,HEL 299,-,>100 µg/mL
NC(=S)N=Nc1c(O)n(CN2CCN(c3ccnc4cc(C(F)(F)F)ccc34)CC2)c2cccc(Cl)c12,Human foreskin fibroblasts,MTT / absorbance,8 µM
CC(C)[C@H](NC(=O)N(C)Cc1ccccn1)C(=O)N[C@@H](Cc1ccccc1)[C@H](O)[C@H](O)[C@H](Cc1ccccc1)NC(=O)[C@@H](NC(=O)N(C)Cc1ccccn1)C(C)C,H9,trypan blue,>100 µM
CCCCCCCCCCCCCCCCOP(=O)([O-])OCC[n+]1ccccc1,MCF,MTT,8.1 µM
Nc1cc(OC[C@H](CO)OCP(=O)(O)O)nc(N)n1,HEL,MTS,54 µM
CON=C1C[C@H](n2cc(C)c(=O)[nH]c2=O)O[C@@H]1CO,P3HR-1,-,>100 µg/mL
CCCCCCCCCCCCCCCC[N+](C)(C)Cc1ccccc1,HUVEC,MTT,7.5 µM
NS(=O)(=O)c1cc([N+](=O)[O-])c(Nc2ccccc2)c([N+](=O)[O-])c1,MDCK cells,-,153 µM
NC(=S)N=Nc1c(O)[nH]c2ccccc12,Human foreskin fibroblasts,MTT / absorbance,9 µM
O=C(N[C@H](CO)Cc1ccccc1)/C(NC(=O)c1ccc(F)cc1)=C(/Br)c1ccccc1,HepG2 2.2.15,MTT,>100 µM
O=C(O)c1cc([N+](=O)[O-])c(N2CCOCC2)c([N+](=O)[O-])c1,MDCK cells,-,>80 µM
Nc1ncnc2c1ncn2CCOCP(=O)(O)O,CBMC,MTT,42 µM
CC(C)[C@H](NC(=O)OCc1ccccc1)C(=O)N[C@@H](Cc1ccccc1)[C@@H](O)[C@H](O)[C@H](Cc1ccccc1)NC(=O)[C@@H](NC(=O)OCc1ccccc1)C(C)C,H9,trypan blue,11 µM
Nc1nc(N)c2ncn([C@H]3CC[C@@H](CO)O3)c2n1,BFU-E,-,50.5 µM
COc1ccc(OC)c(C(=O)NC2N=C(c3ccccc3)c3ccccc3NC2=O)c1,HEP-2,-,5.4 µM
Cc1cc(NS(=O)(=O)c2ccc(N3C(=O)CSC3c3ccc(F)cc3)cc2)no1,HCT116,MTT,>100 µg/mL
O=C1C(=O)N(CCCNc2ccnc3cc(Cl)ccc23)c2cc(Br)ccc21,Human foreskin fibroblasts,MTT / absorbance,3.75 µM
Nc1ccn(C[C@@H](CO)OCP(=O)(O)O)c(=O)n1,CBMC,MTT,190 µM
CO[C@H]1/C=C/O[C@@]2(C)Oc3c(C)c(O)c4c(O)c(c(/C=N/N5CCN(C)CC5)c(O)c4c3C2=O)NC(=O)/C(C)=C\C=C\[C@H](C)[C@H](O)[C@@H](C)[C@@H](O)[C@@H](C)[C@H](OC(C)=O)[C@@H]1C,HCT116,MTT,>100 µg/mL
Nc1ncnc2c1ncn2C[C@@H](CO)OCP(=O)(O)O,CBMC,MTT,19 µM
Nc1ccn([C@H]2CC[C@@H](CO)O2)c(=O)n1,P3HR-1,-,50 µg/mL
O=C(O)P(=O)(O)O,HEL,MTS,500 µM
CC1OP(=O)(OC[C@H]2O[C@@H](n3cc(/C=C/Br)c(=O)[nH]c3=O)C[C@@H]2O)Oc2cccc(Cl)c21,HELF,-,>128 µg/mL
O=C(NC1N=C(c2ccccc2)c2ccccc2NC1=O)c1cn[nH]c1,HEP-2,-,8.3 µM
CC(C)(C)C(=O)OCOP(=O)(COCCn1cnc2c(N)ncnc21)OCOC(=O)C(C)(C)C,HSB-2,MTT,0.7 µM
CC(C)[C@H](NC(=O)OCc1ccccn1)C(=O)NC(Cc1ccccc1)C(O)C(F)(F)C(Cc1ccccc1)NC(=O)OC(C)(C)C,H9,trypan blue,35 µM
Nc1ncc2c(ncn2COC(CO)CO)n1,P3HR-1,-,0.3 µg/mL
CC(C)CCCC/C=C\CCCCCCCC(=O)O,J774A.1 macrophages,resazurin,>200 µg/mL
O=c1[nH]c(=O)n([C@H]2C[C@H](O)[C@@H](CO)O2)cc1C(F)(F)F,HSB-2,MTT,20 µM
Nc1ccn([C@H]2CC[C@@H](CO)O2)c(=O)n1,MOLT-4/8,MTT,47.2 µM
CN(C)CCNc1ncnc2c1ncn2CCOCP(=O)(O)O,P3HR-1,-,>100 µg/mL
O=C(N[C@H]1N=C(c2ccccc2)c2ccccc2NC1=O)c1cccc2cc[nH]c12,HEP-2,-,1.2 µM
CC1=C(C)C(CO)(CO)C[C@H]1n1cnc2c(N)ncnc21,HEL 299,-,>100 µg/mL
O=c1[nH]c(=O)n([C@H]2C[C@H](O)[C@@H](CO)O2)cc1/C=C/Br,BCBL-1,-,119 µg/mL
O=[N+]([O-])c1cc(C(F)(F)F)cc([N+](=O)[O-])c1Nc1ccccc1,MDCK cells,-,>80 µM
O=c1[nH]c(=O)n([C@H]2C[C@H](O)[C@@H](COP3(=O)OCc4ccccc4O3)O2)cc1/C=C/Br,HELF,-,59.4 µg/mL
COCCN(CCOC)c1c([N+](=O)[O-])cc(S(N)(=O)=O)cc1[N+](=O)[O-],MDCK cells,-,9.7 µM
CN(C)c1ncnc2c1ncn2CCOCP(=O)(O)O,P3HR-1,-,>100 µg/mL
CC(C)[C@H](NC(=O)OCCN1CCOCC1)C(=O)N[C@@H](Cc1ccccc1)[C@H](O)[C@H](O)[C@H](Cc1ccccc1)NC(=O)[C@@H](NC(=O)OCCN1CCOCC1)C(C)C,H9,trypan blue,>100 µM
Cc1cccc2c1OP(=O)(OC[C@H]1O[C@@H](n3cc(/C=C/Br)c(=O)[nH]c3=O)C[C@@H]1OC(=O)CN)OC2,HELF,-,87 µg/mL
CCCN(CCC)c1c([N+](=O)[O-])cc(C(=O)O)cc1[N+](=O)[O-],MDCK cells,-,93.1 µM
CC(=O)SCCOP(=O)(OCCSC(C)=O)OC[C@H]1O[C@@H](n2cc(C)c(=O)[nH]c2=O)C[C@@H]1N=[N+]=[N-],MOLT-4/8,MTT,37.1 µM
Nc1ccn([C@@H]2CS[C@H](CO)O2)c(=O)n1,HEL,MTS,208 µM
O=c1[nH]cnc2c1ncn2[C@H]1CC[C@@H](CO)O1,MOLT-4/8(r)AZT(250),MTT,2052 µM
CC(C)[C@H](NC(=O)OCc1ccccc1)C(=O)N[C@@H](Cc1ccccc1)[C@H](O)[C@H](O)[C@H](Cc1ccccc1)NC(=O)[C@@H](NC(=O)OCc1ccccc1)C(C)C,H9,trypan blue,60 µM
CC1=C(Br)[C@H](O)[C@@]2(C=C1Br)CC(C(=O)NCC(O)c1cc(Br)c(OC[C@@H](O)CNC(=O)C3=NO[C@]4(C=C(Br)C(C)=C(Br)[C@@H]4O)C3)c(Br)c1)=NO2,J774A.1 macrophages,resazurin,>200 µg/mL
CCCCCCCCCCCCCCCCOP(=O)([O-])OCC[N+](C)(C)Cc1ccccc1,MDA,MTT,44.3 µM

The last 5 rows once more:

smiles,cells,read by,value
Nc1ccn([C@@H]2CS[C@H](CO)O2)c(=O)n1,HEL,MTS,208 µM
O=c1[nH]cnc2c1ncn2[C@H]1CC[C@@H](CO)O1,MOLT-4/8(r)AZT(250),MTT,2052 µM
CC(C)[C@H](NC(=O)OCc1ccccc1)C(=O)N[C@@H](Cc1ccccc1)[C@H](O)[C@H](O)[C@H](Cc1ccccc1)NC(=O)[C@@H](NC(=O)OCc1ccccc1)C(C)C,H9,trypan blue,60 µM
CC1=C(Br)[C@H](O)[C@@]2(C=C1Br)CC(C(=O)NCC(O)c1cc(Br)c(OC[C@@H](O)CNC(=O)C3=NO[C@]4(C=C(Br)C(C)=C(Br)[C@@H]4O)C3)c(Br)c1)=NO2,J774A.1 macrophages,resazurin,>200 µg/mL
CCCCCCCCCCCCCCCCOP(=O)([O-])OCC[N+](C)(C)Cc1ccccc1,MDA,MTT,44.3 µM